Data source: PubChem BioAssay AID624099 (ICCB-Longwood, 2012)
The whole screen tested about 21,000 reagents; below is a random part of them. 497 of all reagents (2.4%) count as active. 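Higher z means weaker E2 silencing; only reporter increases were scored, and knock-downs that hurt cell survival may mask genuine repressor factors.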 The numbers tell different reagents against one gene apart.

Screen: 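Knock-downs relieving repression by E2 of an HPV18 LCR luciferase reporter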 (primary screen)
System: human C33A cervical carcinoma cells (HPV-negative) stably expressing BPV1 E2 and an HPV18 LCR luciferase reporter
Reagents: siRNA pool against human genes, 40 nM
Time to read-out: 72 h
Detection: 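HPV18 LCR reporter light per well, converted to plate-wise z-scores that exclude control wells, and averaged over triplicate plates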
Direction: mean z-score and z-score: higher = stronger reporter signal, weaker E2 silencing
Rule for the call: 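Mean z ≥ 2 together with z ≥ 2 in two or more of the three replicates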

target gene	reagent no.	mean z-score	z-score, replicate A	z-score, replicate B	z-score, replicate C	activity call
TRIM74 (tripartite motif containing 74)	1	-0.3	0.16	-0.61	-0.46	inactive
VLDLR (very low density lipoprotein receptor)	1	-0.35	-0.46	-0.22	-0.37	inactive
SLCO2B1	1	1.15	1.1	1.1	1.24	inactive
DNAJC7 (DnaJ heat shock protein family (Hsp40) member C7)	1	0.2	-0.02	0.44	0.18	inactive
TUBA3C (tubulin alpha 3c)	1	0.65	0.52	0.69	0.73	inactive
ELF1 (E74 like ETS transcription factor 1)	1	1.38	1.77	0.72	1.64	inactive
TSPAN10 (tetraspanin 10)	1	-0.36	-0.25	-0.6	-0.22	inactive
CREB5 (cAMP responsive element binding protein 5)	1	0.22	0.18	0.18	0.29	inactive
CREB5 (cAMP responsive element binding protein 5)	2	0.73	0.62	0.62	0.96	inactive
CREB5 (cAMP responsive element binding protein 5)	3	0.33	0.44	0.42	0.13	inactive
SLC16A6	1	-1.68	-1.42	-1.92	-1.69	inactive
AHSA1 (activator of HSP90 ATPase activity 1)	1	-1.43	-1.83	-1.35	-1.12	inactive
ASCC3 (activating signal cointegrator 1 complex subunit 3)	1	0.36	-0.02	0.22	0.89	inactive
ASCC3 (activating signal cointegrator 1 complex subunit 3)	2	0.57	0.14	0.5	1.06	inactive
TPT1 (tumor protein, translationally-controlled 1)	1	0.34	0.55	0.19	0.26	inactive
ACCS	1	-0.86	-1.07	-0.73	-0.78	inactive
DNM1L (dynamin 1L)	1	0.07	0.03	0.09	0.1	inactive
EMC2 (ER membrane protein complex subunit 2)	1	1.23	1.3	1.41	0.97	inactive
AIFM2 (AIF family member 2, ferroptosis suppressor)	1	1.87	1.76	1.92	1.93	inactive
LYN (LYN proto-oncogene, Src family tyrosine kinase)	1	-1.78	-1.76	-2	-1.58	inactive
IBSP (integrin binding sialoprotein)	1	-0.83	-0.8	-0.5	-1.18	inactive
USP2 (ubiquitin specific peptidase 2)	1	-1.73	-1.73	-1.64	-1.83	inactive
YWHAEP7	1	-0.74	-0.82	-0.85	-0.55	inactive
